Results of unrelated studies side by side (data: NIAID ChemDB).

Common to all: target-level tests

An empty or dashed field is not shown.

smiles,setting,read-out,dose,strain,species,mutations,target,read by,result
CC1(C)OC(=O)/C(=C/C(=O)c2c[nH]c3ccc(Br)cc23)O1,-,IC50,-,-,HIV-1,-,Integrase,strand transfer / fluorescence,11.9 µM
CC(C)CN(C[C@@H](O)[C@H](Cc1ccccc1)NC(=O)OCc1ccccc1)S(=O)(=O)c1ccccc1,-,IC50,-,-,HIV,-,Protease,fluorescence,0.006 µM
O=S1(=O)N(Cc2ccc(CO)cc2)[C@H](COc2ccccc2)[C@H](O)[C@@H](O)[C@@H](COc2ccccc2)N1Cc1ccc(CO)cc1,-,fold resistance,-,-,HIV,PR-G48V V82A I84V L90M,Protease,-,377
Cc1cc(SC2=C(O)C[C@@](CCc3ccc(O)cc3)(C(C)C)OC2=O)c(C(C)(C)C)cc1N,-,fold resistance,-,-,HIV,PR-I84V,Protease,-,49
COC(=O)C(=O)CC(=O)c1cccn1Cc1ccc(F)cc1,-,IC50,-,-,HIV-1,-,Integrase,binding,1.89 µM
COc1ccc(CN[C@@H](C(=O)N[C@H](C(=O)NCc2ccc(OC)cc2O)C(C)C)[C@H](O)[C@H](Cc2ccccc2)NC(=O)[C@@H](NC(=O)OCc2ccccc2)C(C)C)cc1,-,Ki,-,-,HIV-2,-,Protease,substrate cleavage,0.01 µM
CC(C)CN(C[C@@H](O)[C@H](Cc1ccccc1)NC(=O)OCc1ccccc1)S(=O)(=O)c1cccc2nc(N)sc12,-,IC50,-,-,HIV,-,Protease,fluorescence,1 µM
CC[C@H](C)[C@@H](NC(=O)[C@@H](C[C@H](O)[C@H](CC(C)C)NC(=O)[C@H](Cc1cnc[nH]1)NC(=O)[C@H](Cc1ccccc1)NC(=O)[C@@H]1CCCN1C(=O)[C@@H](N)Cc1cnc[nH]1)C(C)C)C(=O)N[C@@H](Cc1cnc[nH]1)C(=O)O,pH 6.0,Ki,-,-,HIV-2,-,Protease,HPLC,0.01 µM
CC(C)CN(C[C@@H](O)[C@H](Cc1ccccc1)NC(=O)OC1CCOC1)S(=O)(=O)c1ccc2ncsc2c1,-,IC50,-,-,HIV,-,Protease,fluorescence,0.004 µM
CC(C)(C)NC(=O)[C@@H]1CSCN1C(=O)[C@@H](O)[C@H](Cc1ccccc1)NC(=O)[C@H](CCC(F)(F)F)NC(=O)COc1cccc2cnccc12,-,IC50,-,-,HIV,-,Protease,HPLC,0.0027 µg/mL
O=C(O)C(C(=O)O)c1c[nH]c2ccc([N+](=O)[O-])cc12,-,IC50,-,-,HIV-1,Y143R,Integrase,strand transfer / fluorescence,23.5 µM
CC(=O)O[C@H]1c2c(c3c(c4c(-c5ccccc5)cc(=O)oc24)OC(C)(C)C=C3)O[C@H](C)[C@H]1C,-,IC50,-,-,HIV-2,RT-Y181I,Reverse transcriptase,scintillation proximity / radiometric,0.5 µM
CCOC(=O)C(C(=O)OCC)c1cn(Cc2cc(F)ccc2F)c2ccc(F)cc12,-,fold resistance,-,-,HIV-1,Y143R,Integrase,strand transfer / fluorescence,1
O=C(CO)N[C@@H]([C@@H](O)[C@H](O)[C@H](O)CO)[C@@H](O)C(=O)C(=O)O,-,inhibition,80 µM,MN,HIV-1,-,gp120,-,57.6%
COC(=O)c1cc(C(O)(c2ccc(O)c(C(=O)OC)c2)c2ccc(O)c(C(=O)OC)c2)ccc1O,-,IC50,-,-,HIV,-,Integrase,substrate cleavage,>100 µM
CC1(C)OC(=O)/C(=C/C(=O)c2cn(Cc3cc(F)ccc3F)c3ccc(Br)cc23)O1,-,fold resistance,-,-,HIV-1,Y143R,Integrase,strand transfer / fluorescence,1
CC(C)CN(C[C@@H](O)[C@H](Cc1ccccc1)NC(=O)OCc1cccnc1)S(=O)(=O)c1ccc2nc(N)sc2c1,-,IC50,-,-,HIV,-,Protease,fluorescence,0.004 µM
CCC(c1cccc(NC(=O)CNC(=O)OC(C)(C)C)c1)c1c(O)c2ccccc2oc1=O,-,Ki,-,-,HIV-2,-,Protease,substrate cleavage,0.037 µM
CC(C)(C)NC(=O)[C@@H]1CSCN1C(=O)[C@@H](O)[C@H](Cc1ccccc1)NC(=O)[C@H](CC(F)(F)F)NC(=O)COc1cccc2cnccc12,-,IC50,-,-,HIV,-,Protease,HPLC,0.0021 µg/mL
CC(C)OC(=O)C(=O)CC(=O)c1cccn1Cc1ccc(F)cc1,-,IC50,-,-,HIV-1,-,Integrase,binding,0.59 µM
Nc1nc2c(ncn2[C@H]2CC[C@@H](COP(=O)(O)OP(=O)(O)OP(=O)(O)O)O2)c(=O)[nH]1,-,fold resistance,-,-,HIV,RT-P95A,Reverse transcriptase,nucleotide incorporation / radiometric,28
CNC(=O)[C@@H](NC(=O)[C@H](OCc1ccccc1)[C@H](O)[C@@H](O)[C@@H](OCc1ccccc1)C(=O)N[C@H]1c2ccccc2C[C@H]1O)C(C)C,-,Ki,-,-,HIV,PR-L90M,Protease,-,0.00045 µM
NC(N)=NCCC[C@H](N)C(=O)NC[C@@H]1OC(O[C@H]2[C@@H](O)[C@H](O[C@@H]3[C@@H](O)[C@H](NC(=O)[C@@H](N)CCCN=C(N)N)C[C@H](NC(=O)[C@@H](N)CCCN=C(N)N)[C@H]3O[C@H]3O[C@H](CNC(=O)[C@@H](N)CCCN=C(N)N)[C@@H](O)[C@H](O)[C@H]3NC(=O)[C@@H](N)CCCN=C(N)N)O[C@@H]2CO)[C@H](NC(=O)[C@@H](N)CCCN=C(N)N)[C@@H](O)[C@@H]1O,-,IC50,-,-,HIV-1,-,Tat:TAR/LTR,-,>110 µM
NC[C@H]1O[C@H](O[C@H]2[C@H](O)[C@@H](O)[C@H](N)C[C@@H]2N)[C@H](N)[C@@H](O)[C@@H]1O,-,IC50,-,-,HIV-1,-,Rev:RRE,-,>100 µM
Cc1cc(C(O)(c2cc(C)c(O)c(C(=O)O)c2)c2cc(C)c(O)c(C(=O)O)c2)cc(C(=O)O)c1O,-,IC50,-,-,HIV,-,Integrase,substrate cleavage,50–100 µM
N#C/C(=C\c1ccc(Br)nc1)c1nc2ccccc2[nH]1,-,IC50,-,-,HIV-1,-,Vif,-,1.01 µM
Cc1cc(SC2=C(O)C[C@@](CCc3ccc(O)cc3)(C(C)C)OC2=O)c(C(C)(C)C)cc1N,-,inhibition,10 µM,-,HIV,-,Protease,HPLC,24.5%
CCOC(=O)C(=O)C(=O)c1cccn1Cc1ccc(F)cc1,-,IC50,-,-,HIV-1,-,Integrase,binding,3.59 µM
O=C(O)C(=O)/C=C(\O)c1cn(Cc2ccc(F)cc2)c2ccc(Br)cc12,-,fold resistance,-,-,HIV-1,Y143R,Integrase,strand transfer / fluorescence,1.8
Cc1ccccc1C(=O)N[C@@H](Cc1ccccc1)[C@H](O)CN(CC(C)C)S(=O)(=O)c1ccc2nc(N)sc2c1,-,IC50,-,-,HIV,-,Protease,fluorescence,0.003 µM
Cc1cn([C@@H]2O[C@H](CO[Si](C)(C)C(C)(C)C)C3(OS(=O)(=O)C=C3N)[C@H]2O[Si](C)(C)C(C)(C)C)c(=O)n(C)c1=O,-,fold resistance,-,-,HIV,RT-P140A,Reverse transcriptase,nucleotide incorporation / radiometric,0.38
CCOC(=O)C(C(=O)OCC)c1cn(S(=O)(=O)c2ccc(C)cc2)c2ccc(NC(=O)c3ccc(OC)cc3)cc12,-,fold resistance,-,-,HIV-1,Y143R,Integrase,strand transfer / fluorescence,1

The last 4 rows once more:

smiles	setting	read-out	dose	strain	species	mutations	target	read by	result
O=C(O)C(=O)/C=C(\O)c1cn(Cc2ccc(F)cc2)c2ccc(Br)cc12	-	fold resistance	-	-	HIV-1	Y143R	Integrase	strand transfer / fluorescence	1.8
Cc1ccccc1C(=O)N[C@@H](Cc1ccccc1)[C@H](O)CN(CC(C)C)S(=O)(=O)c1ccc2nc(N)sc2c1	-	IC50	-	-	HIV	-	Protease	fluorescence	0.003 µM
Cc1cn([C@@H]2O[C@H](CO[Si](C)(C)C(C)(C)C)C3(OS(=O)(=O)C=C3N)[C@H]2O[Si](C)(C)C(C)(C)C)c(=O)n(C)c1=O	-	fold resistance	-	-	HIV	RT-P140A	Reverse transcriptase	nucleotide incorporation / radiometric	0.38
CCOC(=O)C(C(=O)OCC)c1cn(S(=O)(=O)c2ccc(C)cc2)c2ccc(NC(=O)c3ccc(OC)cc3)cc12	-	fold resistance	-	-	HIV-1	Y143R	Integrase	strand transfer / fluorescence	1

Two numbers with a dash give a range or band. Percent inhibition refers to the dose given; in toxicity tests it is the harm to the cells. Fold resistance has wild type as its base. Lines come from different laboratories, so protocols vary. ICn is the concentration giving n% inhibition.